Human monoclonal antibodies against the spike receptor-binding domain (heavy:light variable regions). IC50 against pseudoviruses bearing the spike of naturally observed variants; lower = stronger; >10 µg/ml means not reached at the top dose. No active / inactive call. The stated detection limit is 0.0005 µg/ml; values near or below 0.001 µg/ml lie at the floor of the assay.
B1: BD55-6103 (protein)
chain 1: QLQLQESGPGLVKPSETLSLTCTVSGGSVSSRSYYWGWIRQPPGKGLEWIGTIYYSGSAQYNPSLKSRVTISVDTSKNQFSLRLSSVTAADTAVYYCARYGGGDAYFDYWGQGTLVTVS
chain 2: DIQMTQSPSTLSASVGDRVTITCRASQSINRWLAWYHQKPGKAPRLLIYMASLLESGVPSRFSGSGSGTEFTLTISSLQPDDFATYYCQQYNSYPYTFGQGTKLEIR
B2: BD55-6106 (protein)
chain 1: QLQLQESGPGLVKPSETLSLTCTISGGSMSSSSYYWGWIRQPPGKGLEWIGSIYYTGTTYYNPSLKSRVTISVDTSGKQFSLKLRSVTAADTAVYYCARHRGSGSYYGLDYWGQGTLVTVSS
chain 2: DIQMTQSPSSVSASVGSTVTITCRASQDISSWLVWYQQKPGKAPKLLIYSASNLQSGVPSRFSGSGSGTDFTLVISSLQPEDFATYYCQQANSFPLTFGGGTRVDIK
B3: BD55-6203 (protein)
chain 1: QVQLVQSGAEVKKPGASVKVSCKASGYTFTDYYIHWVRQAPGQGLEWMAWIDPHSGDTDLVEKFRGRVTLSWDTSITTAYMELSRLKSDDTAVYFCARDLSGADVYGDSYWGQGSLVIVSS
chain 2: SSELTQDPAVSVALGQTVRITCQGDSLRNFYASWYQQKPGQAPVLVMYGKNHRPSGPADRFSGSRSGNTTLLTITGAQAEDEGDYYCNCRDSSGNHWVFGGGTKLTVL
B4: BD55-6208 (protein)
chain 1: EVQLVESGGGLVQPGGSLRLSCAASGFTFSTHYIHWVRQAPGKGLEYLSAVSADGHSTYYAKSVKGRFSISRDNSKNTVYLQMGSLKAEDMGVYYCARDLEYSAWRGTGMGVWGHGTTVTVSS
chain 2: QSVLTQPPSVSGAPGQRVTISCTGSNSNIGAGYDVHWYQQLPGAAPQLLIYGSTNRPSGVPDRFSGSKSGSSASLAITGLQAEDEGDYYCQSYDGSLSGHVVFGGGTKLSVL
B5: BD55-6210 (protein)
chain 1: QVQLVESGGGVVQPGRSLRLSCAASGFTFSDYGMHWVRQAPGKGLEWVAVISFDEKNTDHADSVKGRFTISRDNSKNTLYLQMNSLRPEDTAVYYCAKDRYDSSFYSLPYYYYYGMDVWGQGTTVTVSS
chain 2: DIQMTQSPSSLSASVGDRVTITCQASQDISNYLNWYQQKPGKAPKLLIYDAFTLQRGVPSRFSGSRSGTDFTFTISSLQPEDIATYYCQQYDNLPQTFGQGTKLEIK
B6: BD55-6214 (protein)
chain 1: QVQLQQWGAGLLRPSETLSLTCAVYGGSFSGYYWSWIRQSPGKGLEWLGEIDHSGSTNYNPSLMTRVTISVDRSKNQFSLKLTSVTAADTAVYFCARVGRGYSAYDYYHYYFMDVWGKGSAVTVSS
chain 2: DNQMTQSPSSLSASVGDRVTITCRASQNLTRNLNWYQQKPGEAPKLLIYAASSLHGGVPSRFSGSGSGTDFTLTISSLQPEDFATYYCQQSYSPNTFGQGTKLEIK

Tests used:
Test in all cases: pseudovirus neutralization IC50; higher = weaker neutralization
[1] = target: SARS-CoV-2 Omicron BA.1 spike pseudovirus
Method: (§1)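 Single-round VSV luciferase pseudovirus mixed with antibody dilutions for 1 h and put on Huh-7 cells for about a day; IC50 from the dose curve.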

[2] = target: SARS-CoV-2 Omicron BA.2 spike pseudovirus
Method: as §1

[3] = target: SARS-CoV-2 Omicron BA.2.75 spike pseudovirus
Method: as §1

[4] = target: SARS-CoV-2 Omicron BA.5 spike pseudovirus
Method: as §1

[5] = target: SARS-CoV-2 Omicron BQ.1.1 spike pseudovirus
Method: as §1

[6] = target: SARS-CoV-2 Omicron XBB spike pseudovirus
Method: as §1

[7] = target: SARS-CoV-2 early D614G spike pseudovirus
Method: as §1

Binder | pseudovirus neutralization IC50 [1] [µg/mL] | pseudovirus neutralization IC50 [2] [µg/mL] | pseudovirus neutralization IC50 [3] [µg/mL] | pseudovirus neutralization IC50 [4] [µg/mL] | pseudovirus neutralization IC50 [5] [µg/mL] | pseudovirus neutralization IC50 [6] [µg/mL] | pseudovirus neutralization IC50 [7] [µg/mL]
B1 | > 10 | > 10 | > 10 | > 10 | > 10 | > 10 | 0.611
B2 | > 10 | > 10 | > 10 | > 10 | > 10 | > 10 | > 10
B3 | > 10 | > 10 | > 10 | > 10 | > 10 | > 10 | 0.0269
B4 | > 10 | > 10 | > 10 | > 10 | > 10 | > 10 | 0.0195
B5 | > 10 | > 10 | > 10 | > 10 | > 10 | > 10 | 6.01
B6 | > 10 | > 10 | > 10 | > 10 | > 10 | > 10 | > 10
